Broadly, the inhibition is the relative decrease from the control value, in per cent.

The chains behind the UniProt entries cited, without tags or fusion partners.
UniProt Q8IL11, whole entry: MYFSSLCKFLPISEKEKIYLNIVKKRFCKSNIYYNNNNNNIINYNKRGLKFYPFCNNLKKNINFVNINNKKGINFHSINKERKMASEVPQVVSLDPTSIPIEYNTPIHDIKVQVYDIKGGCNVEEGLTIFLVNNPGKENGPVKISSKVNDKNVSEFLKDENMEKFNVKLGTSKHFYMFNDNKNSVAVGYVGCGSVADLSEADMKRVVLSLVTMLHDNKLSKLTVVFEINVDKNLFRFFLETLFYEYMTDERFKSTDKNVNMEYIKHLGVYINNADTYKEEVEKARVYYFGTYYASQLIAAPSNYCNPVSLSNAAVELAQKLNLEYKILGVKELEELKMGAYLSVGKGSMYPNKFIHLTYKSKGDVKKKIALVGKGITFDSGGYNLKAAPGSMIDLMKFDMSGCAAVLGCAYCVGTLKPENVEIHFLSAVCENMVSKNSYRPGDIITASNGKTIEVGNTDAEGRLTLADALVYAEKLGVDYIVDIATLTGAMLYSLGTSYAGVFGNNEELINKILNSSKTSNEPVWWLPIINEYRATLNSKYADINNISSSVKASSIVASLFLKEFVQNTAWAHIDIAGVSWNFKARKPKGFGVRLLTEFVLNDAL

This is one part of the list. Results with a measured potency or affinity are listed apart. Activity calls are given as the source filed them.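 Rule for the calls: active = compound inhibiting the enzyme by more than half at any dose during confirmatory dose-response retesting; inconclusive = strong single-dose inhibitors picked by rank but not retested; inactive = the rest.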

This experiment has as its target Leucine aminopeptidase (Plasmodium falciparum (isolate 3D7)) (UniProt Q8IL11). The experiment can be described thus: P. falciparum M17LAP inhibitors, primary screen, biochemical, fluorogenic H-Leu-NHMec substrate, 1536-well (AID 1619).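 Note: plate controls were full reaction with DMSO carrier for no effect and no enzyme background for full effect.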 The note with it: recombinant M17LAP, H-Leu-NHMec fluorogenic kinetic assay; at 30 µM; active compounds read high.
As to `CCc1ccc(OP(C)(=O)O)cc1`, the inhibition is inactive: 12.8%.
As for `CP(=O)(Nc1ccccn1)Oc1ccccc1` (centres undefined), the figure is inactive: -4.03%; as for `COc1ccccc1OP(C)(=O)Nc1ccc(C)cc1C` (centres undefined), inactive: 11%.
The figure for `Cc1c(NP(C)(=O)Oc2ccc(C(C)C)cc2)c(=O)n(-c2ccccc2)n1C` (centres undefined) is inactive: 0.52%; for `O=[N+]([O-])c1cc([N+](=O)[O-])c(Nc2ccccn2)c([N+](=O)[O-])c1` it is inactive: 38.3%; for `CN(C)CCOC(=O)C(O)(c1ccccc1)C1CCCC1` (centres undefined) it is inactive: -8.5%.
The figure for `COc1ccc(OP(C)(=O)Nc2ccccn2)cc1` (centres undefined) is inactive: -1.73%; for `COc1ccccc1OP(C)(=O)Nc1ccc(Br)cc1` (centres undefined) it is inactive: -6.69%; for `CP(=O)(Nc1ccc(Cl)cc1Cl)Oc1ccccc1` (centres undefined) it is inactive: 0.45%.
As for `CP(=O)(OCCOc1ccccc1)OCCOc1ccccc1`, the inhibition is inactive: -6.89%.
As for `Cc1nc2ccc3ccccc3c2o1.O=[N+]([O-])c1cc([N+](=O)[O-])c(O)c([N+](=O)[O-])c1`, the figure is inactive: -23.3%.
As for `COc1ccc(OP(C)(=O)Nc2ccccc2Br)cc1` (centres undefined), the figure is inactive: 4.35%; as for `COc1ccccc1OP(C)(=O)Nc1ccc(C)c(C)c1` (centres undefined), inactive: -3.88%.
With `Cc1cc(C)cc(OP(C)(=O)Nc2cccc(C(F)(F)F)c2)c1` (centres undefined), the inhibition is inactive: 21.6%.
The figure for `CP(=O)(OC12CC3CC(CC(C3)C1)C2)OC12CC3CC(CC(C3)C1)C2` is inactive: 0.63%; for `CCOC(=O)c1ccc(NP(C)(=O)Oc2ccc(Cl)cc2)cc1` (centres undefined) it is inactive: 2.04%.
As for `CN(C)C(=O)c1c([N+](=O)[O-])cc([N+](=O)[O-])cc1[N+](=O)[O-]`, the figure is inactive: 5.55%; as for `CP(=O)(Nc1ccc(Cl)cc1)Oc1ccc(F)cc1` (centres undefined), inactive: 8.71%; as for `COc1ccccc1OP(C)(=O)Nc1ccccc1Br` (centres undefined), inactive: 2.25%.
The figure for `CC(C)(C)c1ccc(OP(C)(=O)O)cc1` is inactive: 4.29%.
For the compound `CP(=O)(Oc1ccccc1)N1CCOC1=O` (centres undefined), the inhibition is inactive: -6.17%.
As for `CCc1ccc(OP(C)(=O)Nc2cccnc2)cc1` (centres undefined), the inhibition is inactive: 20.8%.
As for `O=C(OCCCN1CCCC1)C(O)(c1ccccc1)C1CCCCC1` (centres undefined), the figure is inactive: 24.9%; as for `CCN(CC)CC(O)COC(=O)C(O)(c1ccccc1)C1CCCCC1` (centres undefined), inactive: 1.93%.
In the case of `COc1ccc(OP(C)(=O)Nc2ccc(Br)cc2)cc1` (centres undefined), the inhibition was inactive: -15.2%.
For the compound `Cc1ccccc1NP(C)(=O)Nc1ccccc1C`, the inhibition was inactive: 7.21%.
The figure for `CP(=O)(Nc1ccc2c(c1)OCCO2)Oc1ccccc1` (centres undefined) is inactive: -7.29%; for `CCOP(C)(=S)SCC(=O)NC(C)(CC)C(=O)O` (centres undefined) it is inactive: 13.7%.
As for `CP(=O)(Nc1ccc(SC(F)(F)F)cc1)Oc1ccc(F)cc1` (centres undefined), the inhibition is inactive: 10.5%.

The values above are taken from PubChem BioAssay AID1619 (SRMLSC, 2009).
